Measured values from several laboratories, pooled; numbers as filed in NIAID ChemDB.

All rows: growth or infection tests; organism: HIV-1; cells: CEM + CEM-SS; measure: EC50

Conditions beyond the fields shown may differ between rows. ECn is the concentration giving n% inhibition of infection, replication or growth. An empty or dashed field is not shown.

compound | strain | changes | method | value
CCCc1cc(=O)oc2c3c(c4c(c12)OC(C)(C)C=C4)O[C@@H](C)[C@H](C)[C@@H]3O | UC781-R (RT-Y181C) | RT-Y181C | cytopathic effect / XTT | <0.15 µM
CCc1c(C(=O)c2cc(C)cc(C)c2)n(CC2CC=CC2)c(=O)[nH]c1=O | NL4-3 | RT-K101E | cytopathic effect / XTT | >0.14 µM
Cn1cc(N)cc1C(=O)Nc1cc(C(=O)Nc2ccc3cc(S(=O)(=O)O)cc(S(=O)(=O)O)c3c2)n(C)c1 | G691-2 |  | cytopathic effect / XTT | 3.6 µM
CN1C/C(=C\c2cccs2)C(O)/C(=C/c2cccs2)C1 | RF |  | cytopathic effect / XTT | >126 µM
Cc1ccnc2c1NC(=O)c1cccnc1N2C1CC1 | IIIB | RT-P236L | cytopathic effect / XTT | 0.023 µM
CCc1c(Sc2ccccn2)n(COCc2ccccc2)c(=O)[nH]c1=O | Calanolide A-resistant (RT T139I) | RT-T139I | XTT | 0.01 µM
Cc1cn([C@H]2C[C@H](N=[N+]=[N-])[C@@H](CO)O2)c(=O)[nH]c1=O | UC82-R (RT-Y181C) | RT-Y181C | cytopathic effect / XTT | 0.01 µM
Cc1cn([C@H]2C[C@H](N=[N+]=[N-])[C@@H](CO)O2)c(=O)[nH]c1=O | IIIB |  | cytopathic effect / XTT | 0.0025 µM
CCCCCCCCCCCCSCC(COP(=O)([O-])OCC[N+](C)(C)C)OCCCCCCCCO | RF2803 WT |  | plaque count | 0.08 µM
CN1C/C(=C\c2cccs2)C(=O)/C(=C/c2cccs2)C1 | RF |  | cytopathic effect / XTT | >15.2 µM
CCCCCCCCCCCCSCC(COP(=O)([O-])OCC[N+](C)(C)C)OCCCCCCCCC(=O)OCC(=O)OC[C@H]1O[C@@H](n2cc(C)c(=O)[nH]c2=O)C[C@@H]1N=[N+]=[N-] | HXB2 WT |  | plaque count | 0.003 µM
CCCc1cc(=O)oc2c3c(c4c(c12)OC(C)(C)C=C4)O[C@H](C)[C@@H](C)[C@@H]3O | RF |  | RT activity | 0.07 µM
Cc1cn([C@H]2C[C@H](N=[N+]=[N-])[C@@H](CO)O2)c(=O)[nH]c1=O | Pyridinone-resistant (RT K103N Y181C) | RT-K103N Y181C | XTT | 0.01 µM
CC(C)=CCN1Cc2cc(Cl)cc3[nH]c(=S)n(c23)C[C@@H]1C | KELL |  | cytopathic effect / MTT | 0.183 µM
Cc1ccc(/C=C2\CN(C)CC3=C2OC(N)=C(C#N)C3c2ccc(C)cc2)cc1 | RF |  | cytopathic effect / XTT | >11.1 µM
Cc1occc1C(=S)Nc1ccc(Cl)c(/C=N/OC(C)(C)C)c1 | 4XAZT+Y181C |  | cytopathic effect / XTT | 0.2 µM
Fc1cccc(F)c1C1SCc2nc3ccccc3n21 | PM16 |  | cytopathic effect / XTT | 2.19 µM
Cc1cn([C@H]2C[C@H](N=[N+]=[N-])[C@@H](CO)O2)c(=O)[nH]c1=O | G |  | cytopathic effect / XTT | 0.0036 µM
CN1N=C(N)c2cn([C@@H]3O[C@H](COP(=O)(O)O)[C@@H](O)[C@H]3O)c3ncnc1c23 | RF |  | XTT | 0.03 µM
Cc1cn([C@H]2C[C@H](N=[N+]=[N-])[C@@H](CO)O2)c(=O)[nH]c1=O | NL4-3 | RT-A98G | cytopathic effect / XTT | 0.01 µM
Cc1cn([C@H]2C[C@H](N=[N+]=[N-])[C@@H](CO)O2)c(=O)[nH]c1=O | N119 |  | cytopathic effect / XTT | 4.4 µM
Cc1ccnc2c1NC(=O)c1cccnc1N2C1CC1 | NL4-3 | RT-A98G | XTT | 0.2 µM
Cc1cn([C@H]2C[C@H](N=[N+]=[N-])[C@@H](CO)O2)c(=O)[nH]c1=O | IIIB HEPT-resistant (RT P236L) | RT-P236L | cytopathic effect / XTT | 0.006 µM
Cc1cn([C@H]2C[C@H](N=[N+]=[N-])[C@@H](CO)O2)c(=O)[nH]c1=O | MN |  | cytopathic effect / XTT | 0.004 µM
CN1CC2=C(OC(N)=C(C#N)C2c2cccs2)/C(=C/c2cccs2)C1 | RF |  | cytopathic effect / XTT | >9 µM
O=S(=O)(c1ccccc1)c1cccc2c1NCCC2 | IIIB |  | XTT | 20 µM
CCCc1cc(=O)oc2c3c(c4c(c12)OC(C)(C)C=C4)O[C@@H](C)[C@H](C)[C@@H]3O | Calanolide A-resistant (RT T139I) | RT-T139I | XTT | 4.5 µM
CCCc1cc(=O)oc2c3c(c4c(c12)OC(C)(C)CC4)O[C@H](C)[C@@H](C)[C@@H]3O | RF |  | RT activity | 0.13 µM
CNc1ccc(S(=O)(=O)c2ccccc2[N+](=O)[O-])cc1C | IIIB |  | XTT | 0.2 µM
C/C=C/CSc1cc(NC(=S)c2ccsc2C)ccc1Cl | Costatolide-resistant (RT Y188H) | RT-Y188H | cytopathic effect / XTT | 1 µM
Cc1cn([C@H]2C[C@H](N=[N+]=[N-])[C@@H](CO)O2)c(=O)[nH]c1=O | C |  | cytopathic effect / XTT | 0.002 µM
O=S1(c2ccccc2)=NC(=S)Nc2cc(Cl)ccc21 | IIIB |  | cytopathic effect / XTT | 23 µM
CCCc1cc(=O)oc2c3c(c4c(c12)OC(C)(C)C=C4)O[C@H](C)[C@@H](C)[C@@H]3O | UC38-R(RT-Y181C | RT-Y181C | cytopathic effect / XTT | 0.02 µM
Cc1ccnc2c1NC(=O)c1cccnc1N2C1CC1 | NL4-3 | RT-Y181C | cytopathic effect / XTT | 1.3 µM
CCCc1cc(=O)oc2c3c(c4c(c12)OC(C)(C)C=C4)O[C@H](C)[C@@H](C)[C@@H]3O | NL4-3 | RT-Y188C | XTT | 1.7 µM
CCc1c(Sc2ccccn2)n(COCc2ccccc2)c(=O)[nH]c1=O | NL4-3 | RT-V108I | cytopathic effect / XTT | 0.05 µM
O=S1(c2ccccc2)=NC(=S)Nc2ccccc21 | C |  | cytopathic effect / XTT | 4.16 µM
CNc1ccc(Cl)cc1S(=O)(=O)c1ccccc1[N+](=O)[O-] | IIIB |  | XTT | 0.08 µM

Repeating the final 5 entries:

compound | strain | changes | method | value
Cc1ccnc2c1NC(=O)c1cccnc1N2C1CC1 | NL4-3 | RT-Y181C | cytopathic effect / XTT | 1.3 µM
CCCc1cc(=O)oc2c3c(c4c(c12)OC(C)(C)C=C4)O[C@H](C)[C@@H](C)[C@@H]3O | NL4-3 | RT-Y188C | XTT | 1.7 µM
CCc1c(Sc2ccccn2)n(COCc2ccccc2)c(=O)[nH]c1=O | NL4-3 | RT-V108I | cytopathic effect / XTT | 0.05 µM
O=S1(c2ccccc2)=NC(=S)Nc2ccccc21 | C |  | cytopathic effect / XTT | 4.16 µM
CNc1ccc(Cl)cc1S(=O)(=O)c1ccccc1[N+](=O)[O-] | IIIB |  | XTT | 0.08 µM